Holding throughout (experiment): cell-based or functional assay
In assay [1] the target is HIV-2 ST envelope glycoprotein (HIV-2 ST) (UniProt P20872).
Assay [2] deals with HIV-2 7312A/Q422L envelope glycoprotein (HIV-2 isolate 7312A).
In assay [3] the target is HIV-2 7312A/H419R envelope glycoprotein (HIV-2 isolate 7312A).
Assay [4] deals with HIV-2 7312A envelope glycoprotein (HIV-2 isolate 7312A).
Assay [5] concerns the target HIV-2 UC-1 envelope glycoprotein (HIV-2 UC1) (UniProt Q76638).
For assay [6], the target named is HIV-2 7312A/V434M envelope glycoprotein (HIV-2 isolate 7312A).

For the substance “soluble CD4 (from UniProt P01730 26-390) (receptor)”, the IC50 of sCD4 specific for the virus (neutralization) in assay [1] was 25 nM; in assay [2], 6 nM; in assay [3], 28 nM; in assay [4], 9 nM; in assay [5], 3 nM; in assay [6], 15 nM.
